This passage reports koff and Kd results from article PMC12363188 (2025).

Assay [1] concerns the target T1, SARS-CoV-2 spike ectodomain (Se) (SARS-CoV-2, UniProt P0DTC2 14-1213). Nature of the assay: SPR. On the technique in general: SPR reads the build-up and loss of mass on a sensor chip optically.
The target of assay [2] is T1, SARS-CoV-2 spike ectodomain (Se). Description: SPR. The source holds these as a separate data set.

B1: Rp-bACE2-D31K recombinant protein (protein)
chain: QSITEDKAKKFLNKFNSEAEDLSYQSSLASWDYNTNISDENVQKMDEAGAKWSAFYEEQSKIAKNYPLEEIQTDIVKRQLQILQQSGSPVLSEDKSKRLNSILNAMSTIYSTGKVCKPNNPQECLLLEPGLDNIMGTSKDYHERLWAWEGWRAEVGKQLRPLYEEYVVLKNEMARGYHYEDYGDYWRRDYETEESSGPGYSRDQLMKDVDRIFTEIKPLYEHLHAYVRAKLMDTYPLHISPTGCLPAHLLGDMWGRFWTNLYPLTVPFGQKPNIDVTDEMVKQGWDANRIFKEAEKFFVSVGLPNMTEGFWNNSMLTEPGDGRKVVCHPTAWDLGKGDFRIKMCTKVTMEDFLTAHHEMGHIQYDMAYASQPYLLRNGANEGFHEAVGEVMSLSVATPKHLKTMGLLSPDFREDDETEINFLLKQALNIVGTLPFTYMLEKWRWMVFKGEIPKEEWMKKWWEMKREIVGVVEPVPHDETYCDPASLFHVANDYSFIRYYTRTIFEFQFHEALCRIAQHNGPLHKCDISNSTDAGKKLHQMLSVGKSQAWTKTLEDIVGSRNMDVGPLLRYFKPLYTWLQEQSRKSYVGWNTDWSPYSD
Usually koff stands for the rate constant with which the complex falls apart. The term Kd denotes a measure of binding affinity in units of concentration. In the case of B1, the off-rate (koff) in assay [1] came out at 0.0557 s⁻¹. In assay [2], this molecule returned an equilibrium dissociation constant (Kd) of 75.1 nM.
